Test results as given in PMC4671662, “Identification of New Molecular Entities (NMEs) as Potential Leads against Tuberculosis from Open Source Compound Repository” (PLoS ONE, 2015).

Experiments:
[1] = system: A549 (human lung epithelial cells); assay: Sulforhodamine B (SRB) cytotoxicity assay; assay type: cell-based; conditions: therapeutic index, IC50/GI50 value against H37Rv
[2] = system: HepG2 (human hepatoma cells); assay: Sulforhodamine B (SRB) cytotoxicity assay; assay type: cell-based; conditions: therapeutic index, IC50/GI50 value against H37Rv

Compound | A549 TI [1] | HEPG2 TI [2]
COc1cc2c(cc1NC(=O)N1CCCCC1c1cccnc1)oc1ccccc12 (stereo not drawn) [Compound H15] | >50 | >50
O=C(CC1(O)c2ccccc2-n2c1nc1ccccc1c2=O)c1ccccc1 (stereo not drawn) [Compound H26] | >50 | >50
N#Cc1ccc(C(=O)CC2(O)c3ccccc3-n3c2nc2ccccc2c3=O)cc1 (stereo not drawn) [Compound H27] | >50 | >50
O=C(CSc1nnc(COc2ccc(F)cc2)o1)OC1CCCCC1 [Compound H43] | >50 | >50
Cc1nc(C)c(C(=O)N(c2cccc(C)c2C)C(C(=O)NC2CCCCC2)c2ccccc2)s1 (stereo not drawn) [Compound H85] | >50 | >50
CCSc1nsc(NC(=O)Nc2ccc(C(F)(F)F)cc2)n1 [Compound H94] | >50 | >50
Cc1ccc(-c2nc3ccccc3s2)cc1 [Compound H117] | >50 | >50
Cc1ccc(C)c(Cn2nnc3c(O)nc(C4CCCN(C(=O)c5ccc(C(C)(C)C)cc5)C4)nc32)c1 (stereo not drawn) [Compound H126] | >50 | >50
O=C(CSc1nnc2scc(-c3ccccc3)n12)Nc1ccc(N2CCCC2)cc1 [Compound H127] | >50 | >50
Nc1ccc(C(=O)CSc2nnc3c(n2)CCCC3)cc1 [Compound H134] | >50 | >50
Nc1ccc(C(=O)CC2(O)c3ccccc3-n3c2nc2ccccc2c3=O)cc1 (stereo not drawn) [Compound H136] | >50 | >50
O=C(Cn1c(=O)n(Cc2ccc(F)cc2)c(=O)c2ccccc21)Nc1cc(F)ccc1F [Compound H137] | >50 | >50
